Results deposited as PubChem BioAssay AID624099 (ICCB-Longwood, 2012)
Aim: 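Knock-downs relieving repression by E2 of an HPV18 LCR luciferase reporter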 (primary screen). Cells: human C33A cervical carcinoma cells (HPV-negative) stably expressing BPV1 E2 and an HPV18 LCR luciferase reporter. Knock-down reagent: siRNA pool against human genes, 40 nM. Time to read-out: 72 h. Measurement: 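HPV18 LCR reporter light per well, converted to plate-wise z-scores that exclude control wells, and averaged over triplicate plates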. Direction: mean z-score and z-score: higher = stronger reporter signal, weaker E2 silencing. Active means: 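Mean z ≥ 2 together with z ≥ 2 in two or more of the three replicates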.
Shown is one part, drawn at random, of about 21,000 reagents tested. 497 of all reagents (2.4%) were called active. 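Higher z means weaker E2 silencing; only reporter increases were scored, and knock-downs that hurt cell survival may mask genuine repressor factors.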 No sequences are given here.

Against RETREG3 the deposit lists mean z-score -0.23; z-score, replicate A = -0.2; z-score, replicate B = -0.26; z-score, replicate C = -0.22; inactive. With knock-down of CA6, the record shows mean z-score 0.1; z-score, replicate A = 0.24; z-score, replicate B = -0.03; z-score, replicate C = 0.1; inactive. RTL10 gave mean z-score -3.97; z-score, replicate A = -4.04; z-score, replicate B = -3.86; z-score, replicate C = -4.01; inactive. After knock-down of SLC6A17, the record shows mean z-score 0.58; z-score, replicate A = 1.01; z-score, replicate B = 0.12; z-score, replicate C = 0.62; inactive. MORC2-AS1 showed mean z-score -0.13; z-score, replicate A = 0.01; z-score, replicate B = 0; z-score, replicate C = -0.39; inactive. For BACC1, the entry reads mean z-score 0.01; z-score, replicate A = 0.15; z-score, replicate B = -0.2; z-score, replicate C = 0.08; inactive.

After knock-down of LINC02874, the record shows mean z-score 0.18; z-score, replicate A = -0.07; z-score, replicate B = 0.45; z-score, replicate C = 0.18; inactive. For KRTAP6-2, the values are mean z-score -0.47; z-score, replicate A = -0.33; z-score, replicate B = -0.51; z-score, replicate C = -0.58; inactive.

In a second layout: 2 of the entries above
| Gene | mean z-score | z-score, replicate A | z-score, replicate B | z-score, replicate C | Call |
| --- | --- | --- | --- | --- | --- |
| SLC6A17 | 0.58 | 1.01 | 0.12 | 0.62 | inactive |
| MORC2-AS1 | -0.13 | 0.01 | 0 | -0.39 | inactive |

Additional entries follow.
Silencing of IDI2 came out at: mean z-score -0.56; z-score, replicate A = -0.89; z-score, replicate B = -0.58; z-score, replicate C = -0.21; inactive. For SYT17, the values are mean z-score 0.47; z-score, replicate A = 0.71; z-score, replicate B = 0.5; z-score, replicate C = 0.21; inactive. CFAP57 scored mean z-score 0.39; z-score, replicate A = 0.28; z-score, replicate B = 0.66; z-score, replicate C = 0.22; inactive. For DHX35, the entry reads mean z-score -1.03; z-score, replicate A = -1.1; z-score, replicate B = -0.89; z-score, replicate C = -1.1; inactive.
